Compound potency records, mixed from different reports. Data source: NIAID ChemDB in PubChem.

All rows: growth or infection tests; species: HIV-2; read-out: EC50

Neighbouring rows are from separate reports.

{"SMILES": "Cc1cn([C@H]2C=C[C@@H](COP3(=O)Oc4ccccc4C(C)O3)O2)c(=O)[nH]c1=O", "cell line": "CEM + CEM TK-", "result": "35 µM"}
{"SMILES": "Cc1cn([C@H]2C=C[C@@H](CO)O2)c(=O)[nH]c1=O", "strain or isolate": "ROD", "cell line": "CEM", "result": "0.34 µM"}
{"SMILES": "Cc1cn([C@H]2C=C[C@@H](COP3(=O)OCc4cccc(-c5ccccc5)c4O3)O2)c(=O)[nH]c1=O", "cell line": "CEM + CEM TK-", "result": "0.15 µM"}
{"SMILES": "Nc1nc(NC2CC2)c2ncn(C3CC=C[C@H]3CO)c2n1", "strain or isolate": "ROD", "cell line": "CEM/TK-", "result": ">100 µM"}
{"SMILES": "Cc1cn([C@H]2C=C[C@@H](COP3(=O)Oc4ccccc4C(C(Cl)Cl)O3)O2)c(=O)[nH]c1=O", "cell line": "CEM + CEM TK-", "result": "27 µM"}
{"SMILES": "COC(=O)[C@H](C)OP(=O)(OC[C@@H]1C=C[C@H](n2cc(C)c(=O)[nH]c2=O)O1)Oc1ccccc1", "cell line": "CEM", "result": "50 µM"}
{"SMILES": "Nc1ncnc2c1ncn2[C@H]1CC[C@@H](CO)O1", "strain or isolate": "ROD", "cell line": "C8166", "result": "22 µM"}
{"SMILES": "COc1ccc2c(c1)COP(=O)(OC[C@@H]1C=C[C@H](n3cnc4c(N)ncnc43)O1)O2", "cell line": "CEM + CEM/0", "result": "0.65 µM"}
{"SMILES": "O=c1[nH]c(=O)n(/C=C\\P(=O)(O)O)cc1CO", "strain or isolate": "ROD", "cell line": "CEM + CEM-SS", "result": ">200 µM"}
{"SMILES": "Cc1cn([C@H]2C[C@H](N=[N+]=[N-])[C@@H](CO)O2)c(=O)[nH]c1=O", "strain or isolate": "ROD", "cell line": "MT-2", "result": "0.018 µM"}
{"SMILES": "Cc1cc(C)c2c(c1)COP(=O)(OC[C@H]1O[C@@H](n3cc(C)c(=O)[nH]c3=O)C[C@@H]1N=[N+]=[N-])O2", "cell line": "CEM + CEM TK-", "result": "7 µM"}
{"SMILES": "CC(=O)Oc1ccc(/C=C/C(=O)O[C@@H](C(=O)O)[C@@H](OC(=O)/C=C/c2ccc(OC(C)=O)c(OC(C)=O)c2)C(=O)O)cc1OC(C)=O", "strain or isolate": "ROD", "cell line": "MT-4", "result": "25.5 µM"}
{"SMILES": "Cc1cn([C@H]2C=C[C@@H](COP3(=O)OCc4ccc5ccccc5c4O3)O2)c(=O)[nH]c1=O", "cell line": "CEM + CEM/O", "result": "0.12 µM"}
{"SMILES": "CCOP(=O)(/C=C\\n1cc(I)c(=O)[nH]c1=O)OCC", "strain or isolate": "ROD", "cell line": "CEM + CEM-SS", "result": ">200 µM"}
{"SMILES": "CC(C)c1cc(=O)oc2c3c(c4c(c12)OC(C)(C)C=C4)C[C@H](C)[C@@H](C)[C@@H]3O", "strain or isolate": "ROD", "cell line": "CEM + CEM-SS", "result": ">10 µM"}
{"SMILES": "Cc1cn([C@H]2C=C[C@@H](COP3(=O)Oc4cccc(Cl)c4C(C)O3)O2)c(=O)[nH]c1=O", "cell line": "CEM + CEM/O", "result": "0.25 µM"}
{"SMILES": "COc1ccc2c(c1)COP(=O)(OC[C@H]1O[C@@H](n3cc(C)c(=O)[nH]c3=O)C[C@@H]1N=[N+]=[N-])O2", "cell line": "CEM + CEM/O", "result": "0.021 µM"}
{"SMILES": "CC(=O)OC(OC(C)=O)c1cc(C)c2c(c1)COP(=O)(OC[C@@H]1C=C[C@H](n3cc(C)c(=O)[nH]c3=O)O1)O2", "cell line": "CEM", "result": "0.57 µM"}
{"SMILES": "Cc1cn([C@H]2C[C@H](N=[N+]=[N-])[C@@H](COP3(=O)OCc4ccccc4O3)O2)c(=O)[nH]c1=O", "cell line": "CEM + CEM TK-", "result": ">20 µM"}
{"SMILES": "C=C(COCP(=O)(O)O)Cn1cnc2c(=O)[nH]c(N)nc21", "strain or isolate": "ROD", "cell line": "MT-4", "result": "6.3 µM"}
{"SMILES": "CCCCCCCCCCCCCCCOP(=O)(OCc1ccc(OC(=O)CCCC)cc1)OP(=O)(O)OP(=O)(O)OC[C@@H]1C=C[C@H](n2cc(C)c(=O)[nH]c2=O)O1", "result": "0.14 µM"}
{"SMILES": "Cc1cccc2c1OP(=O)(OC[C@H]1O[C@@H](n3cc(C)c(=O)[nH]c3=O)C[C@@H]1N=[N+]=[N-])OC2", "cell line": "CEM + CEM TK-", "result": "15 µM"}
{"SMILES": "Cc1cn([C@H]2C[C@H](N=[N+]=[N-])[C@@H](CO)O2)c(=O)[nH]c1=O", "strain or isolate": "ROD", "cell line": "CEM", "result": "0.006 µM"}
{"SMILES": "Cc1cn(/C=C\\P(=O)(O)O)c(=O)[nH]c1=O", "strain or isolate": "ROD", "cell line": "CEM + CEM-SS", "result": ">200 µM"}
{"SMILES": "CC(C)c1cc(=O)oc2c3c(c4c(c12)OC(C)(C)C=C4)O[C@@H](C)[C@H](C)C3=O", "strain or isolate": "ROD", "cell line": "CEM + CEM-SS", "result": "0.17 µM"}
{"SMILES": "CCOP(=O)(/C=C\\n1ccc(=O)[nH]c1=O)OCC", "strain or isolate": "ROD", "cell line": "CEM + CEM-SS", "result": ">200 µM"}
{"SMILES": "Nc1nc2c(ncn2CCOCP(=O)(O)O)c(=O)[nH]1", "strain or isolate": "ROD", "cell line": "CEM", "result": "0.53 µM"}
{"SMILES": "Cc1cn([C@H]2C=C[C@@H](COP3(=O)OCc4cc5ccccc5cc4O3)O2)c(=O)[nH]c1=O", "cell line": "CEM + CEM TK-", "result": "4 µM"}
{"SMILES": "CC(C)c1cc2c(c(O)c1O)[C@@]1(C(=O)O)CCCC(C)(C)C1CC2", "strain or isolate": "EHO", "cell line": "MT-2", "result": "0.011 µM"}
{"SMILES": "CCc1nc([N+](=O)[O-])c(N2CCN(C(=O)CNCCCCCCn3c(=O)c(C)cn([C@H]4C[C@H](N=[N+]=[N-])[C@@H](CO)O4)c3=O)CC2)n1Cc1ccccc1", "strain or isolate": "ROD", "cell line": "MT-4", "result": ">56 µg/mL"}
{"SMILES": "Cc1cc(C=O)cc2c1OP(=O)(OC[C@@H]1C=C[C@H](n3cc(C)c(=O)[nH]c3=O)O1)OC2", "cell line": "CEM", "result": "0.39 µM"}
{"SMILES": "COC(=O)[C@H](C)NP(=O)(OC[C@@H]1CC[C@H](n2cnc3c(N)ncnc32)O1)Oc1ccccc1", "strain or isolate": "ROD", "cell line": "C8166", "result": "0.05 µM"}
{"SMILES": "CCS(=O)(=O)C[C@H]1O[C@@H](n2cc(C)c(=O)[nH]c2=O)C[C@@H]1N=[N+]=[N-]", "strain or isolate": "ROD", "cell line": "MT-4", "result": "≥2.3 µg/mL"}

The last 2 rows once more:

SMILES | strain or isolate | cell line | result
COC(=O)[C@H](C)NP(=O)(OC[C@@H]1CC[C@H](n2cnc3c(N)ncnc32)O1)Oc1ccccc1 | ROD | C8166 | 0.05 µM
CCS(=O)(=O)C[C@H]1O[C@@H](n2cc(C)c(=O)[nH]c2=O)C[C@@H]1N=[N+]=[N-] | ROD | MT-4 | ≥2.3 µg/mL

ECn is the concentration giving n% inhibition of infection, replication or growth.